For two substances, Kd results are on record in US20220228161A1 (published 2022).

This assay deals with gp41 peptide […]. The assay can be described thus: SPR. (In general: SPR reads the build-up and loss of mass on a sensor chip optically.)

The substance 2F5 cleaved showed a Kd of 163 nM.

In turn, 2F5 intact yielded a Kd of 6 nM. Compared with the last substance, the Kd is about 27-fold lower.

As usually defined, the Kd is the equilibrium constant for the complex coming apart. High values mean a looser complex, low ones a tighter complex.
